The text below walks through data of the supplement of paper PMC9931576.

Human monoclonal antibodies against the spike receptor-binding domain (heavy:light variable regions). IC50 against pseudoviruses bearing the spike of naturally observed variants; lower = stronger; >10 µg/ml means not reached at the top dose. No active / inactive call. The stated detection limit is 0.0005 µg/ml; values near or below 0.001 µg/ml lie at the floor of the assay.

The chains are these.
B1: BD55-6408 (protein)
chain 1: LQLQESGPGLVKPSETLSLTCTVSGGSIRGSNYYWGWIRQPPGKGLEWIANIYFSGITYYNPSLKSRVTISVDTSNNQFSLDLRSVTAADTAVYYCARESGPISGYDNGERYHGMDVWGRGTTVTVSS
chain 2: YVLTQPPSVSVAPGQTARITCGGANIGTKSVHWYQQTPGQAPVQVVHDDSDRPSGIPDRFSGSNSGNTATLTISRVEAGDEADYFCQVWDNSRDHSSSWVFGGGTKLTVL
B2: BD55-6411 (protein)
chain 1: QITLEESGPTLVKPTQTLTLTCTFSGFSLSTTEMGVGWIRQPPGKAPEWLALIYWDDAKRYSPSLESRLTITKDTSKNQVVLRMTNMDPVDTATYYCARWYYDISTAGLYYMDVWGKGTTVTVSS
chain 2: DIVMTQTPLSSPVTLGQTASISCKSSQSLVHSDGNTYLSWLQQRPGQPPRVLIYKISNRVSGVPDRFSGSGAVTEFTLKISRVEPEDVGVYYCMQATQFPYEMYTFGQGTKLEIK
B3: BD55-6409 (protein)
chain 1: QVQVVQSESELKKPGASVKISCKASGYTFTSYAMNWVRQAPGQGLEWMGWINTDTGNPTYAQGFTGRFFFSWDTSVSTAYLHISGLKAEDTAVYYCARADRDYYGYESFDIWGQGTMVTVSS
chain 2: DIQMTQSPSSLSASVGDRVTITCRASQSISNYLNWYQQKSGKAPKVLIYAASTLRSGVPSRFSGSGSGTDFTLTISSLQPEDFATYYCQQTYSSHLLTFGGGTKV
B4: BD55-6407 (protein)
chain 1: QVRLVQSGAEVKKPGASVKVSCQASGGTFSSPDFNWLRQAPGQGPEWMGWMNPSSGDTGYAHKFQGRVTMTRNTSISTAYMELSSLRSEDTAVYYCARGRDKSGWFVADVDYYGMDVWGQGTTVTVSS
chain 2: DIQMTQSPSSLSASVGDRVTITCRASQSISYYLNWYQQKPGKAPKFLIYAASSLQSGVPSRFSGSGSGTDFTLTISSLQPEDFATYYCQQGYSTPPTFGQGTRLEIK
B5: BD55-6421 (protein)
chain 1: EVQLVESGGGLIQPGGSLRLSCTASGFSVSSKYMSWVRQAPGKGLEWVSLIYSGYSTIYADSVKGRFTISRDSSKNTLNLQMNSLRAEDTAVYYCARGGGDYPWWYFDLWGRGTLVTVSS
chain 2: DIQMTQSPSSLSASIGDRVTITCRASQSIDTYLNWYQQKPGKAPNLLIYAASSLQSGVPSRFSGSGSGTDFTLTISSLQPEDLATYYCQLSSSTLTFGGGTKVEIK
B6: BD55-6406 (protein)
chain 1: QLQLQESGPGLVKPSETLSLTCSVSGGSVNSRSYQWGWIRQSPGKGLEWIGSMYYRGTIQYSPSLKSRVTISVDTSKNQVSLNLRSVTAADTAVYYCARCNGDAYFDSWGQGTLVAVSS
chain 2: DIQMTQSPSTLSASVGDRVTITCRASQSISRWLAWYQQKPGKAPKLLIYMASILESGVPSRFSGSGSGTDFTLTISSLQPDDFATYYCQQYNSDPYTFGQGTNLEIE

For one experiment, the target named is SARS-CoV-2 Omicron BA.1 spike pseudovirus. Put plainly: pseudovirus neutralization IC50; higher = weaker neutralization. Here is the method: (§1)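 Single-round VSV luciferase pseudovirus mixed with antibody dilutions for 1 h and put on Huh-7 cells for about a day; IC50 from the dose curve.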
Take B1: the “pseudovirus neutralization IC50” value is greater than 10 µg/mL.

On to B2, for which the “pseudovirus neutralization IC50” value is greater than 10 µg/mL.

With B3, the “pseudovirus neutralization IC50” value was greater than 10 µg/mL.

As for B4, the “pseudovirus neutralization IC50” value was greater than 10 µg/mL.

As to B5, the “pseudovirus neutralization IC50” value was greater than 10 µg/mL.

Take B6: the “pseudovirus neutralization IC50” value was greater than 10 µg/mL.

The target in the next experiment is SARS-CoV-2 Omicron BA.2 spike pseudovirus. The experiment is described as above. How it is done:
as §1
For the molecule B1, the “pseudovirus neutralization IC50” value was greater than 10 µg/mL.

For B2, the “pseudovirus neutralization IC50” value is greater than 10 µg/mL.

Consider B3, for which the “pseudovirus neutralization IC50” value was greater than 10 µg/mL.

As to B4, the “pseudovirus neutralization IC50” value was greater than 10 µg/mL.

Turning to B5, the “pseudovirus neutralization IC50” value was greater than 10 µg/mL.

For B6, the “pseudovirus neutralization IC50” value was greater than 10 µg/mL.

In a further experiment the target is SARS-CoV-2 Omicron BA.2.75 spike pseudovirus. Described as above. How it is done:
as §1
B1: the “pseudovirus neutralization IC50” value was greater than 10 µg/mL.

As for B2, the “pseudovirus neutralization IC50” value is greater than 10 µg/mL.

With B3, the “pseudovirus neutralization IC50” value is greater than 10 µg/mL.

For B4, the “pseudovirus neutralization IC50” value was greater than 10 µg/mL.

As for B5, the “pseudovirus neutralization IC50” value was greater than 10 µg/mL.

In the case of B6, the “pseudovirus neutralization IC50” value is greater than 10 µg/mL.

The target in a further experiment is SARS-CoV-2 Omicron BA.5 spike pseudovirus. The experiment is described as above. Here is the method:
as §1
For the molecule B1, the “pseudovirus neutralization IC50” value is greater than 10 µg/mL.

For the molecule B2, the “pseudovirus neutralization IC50” value was greater than 10 µg/mL.

Take B3: the “pseudovirus neutralization IC50” value is greater than 10 µg/mL.

On to B4, for which the “pseudovirus neutralization IC50” value is greater than 10 µg/mL.

B5: the “pseudovirus neutralization IC50” value was greater than 10 µg/mL.

On to B6, for which the “pseudovirus neutralization IC50” value is greater than 10 µg/mL.

A further experiment addresses SARS-CoV-2 Omicron BQ.1.1 spike pseudovirus. Described as above. Here is the method:
as §1
Regarding B1, the “pseudovirus neutralization IC50” value was greater than 10 µg/mL.

For B2, the “pseudovirus neutralization IC50” value is greater than 10 µg/mL.

Turning to B3, the “pseudovirus neutralization IC50” value is greater than 10 µg/mL.

For B4, the “pseudovirus neutralization IC50” value is greater than 10 µg/mL.

B5: the “pseudovirus neutralization IC50” value is greater than 10 µg/mL.

With B6, the “pseudovirus neutralization IC50” value was greater than 10 µg/mL.

The next experiment concerns the target SARS-CoV-2 Omicron XBB spike pseudovirus. The experiment is described as above. Here is the method: as §1
Turning to B1, the “pseudovirus neutralization IC50” value is greater than 10 µg/mL.

On to B2, for which the “pseudovirus neutralization IC50” value was greater than 10 µg/mL.

As to B3, the “pseudovirus neutralization IC50” value is greater than 10 µg/mL.

For the molecule B4, the “pseudovirus neutralization IC50” value was greater than 10 µg/mL.

Consider B5, for which the “pseudovirus neutralization IC50” value is greater than 10 µg/mL.

Regarding B6, the “pseudovirus neutralization IC50” value is greater than 10 µg/mL.

The next experiment concerns the target SARS-CoV-2 early D614G spike pseudovirus. The experiment is described as above. How it is done: as §1
Regarding B1, the “pseudovirus neutralization IC50” value was 5.82 µg/mL.

With B2, the “pseudovirus neutralization IC50” value was 0.0931 µg/mL.

As to B3, the “pseudovirus neutralization IC50” value is greater than 10 µg/mL.

For the molecule B4, the “pseudovirus neutralization IC50” value was greater than 10 µg/mL.

As to B5, the “pseudovirus neutralization IC50” value is greater than 10 µg/mL.

As for B6, the “pseudovirus neutralization IC50” value amounted to 0.743 µg/mL.
